Results of unrelated studies side by side (data: NIAID ChemDB).

All rows: growth or infection tests; agent: Epstein-Barr virus; read-out: EC50

An empty or dashed field is not shown.

SMILES,strain,read by,cell line,value
COC(=O)[C@H](C)NP(=O)(OC[C@@H]1C[C@]12C[C@@H]2n1cnc2c(N)ncnc21)Oc1ccccc1,-,-,-,2.8 µM
CC(N=[N+]=[N-])c1cn([C@H]2C[C@H](O)[C@@H](CO)O2)c(=O)[nH]c1=O,P3HR-1,cytopathic effect,HFF,44.6 µM
Nc1nc2c(ncn2COCCO)c(=O)[nH]1,-,cytopathic effect,P3HR-1,0.3 µM
Nc1nc(NC2CC2)c2ncn(C=C3CC3CO)c2n1,-,-,DAUDI,1.7 µM
Cc1cn([C@@H]2O[C@H](CO)[C@@H](O)[C@@H]2F)c(=O)[nH]c1=O,-,-,H-1,<0.1 µM
Nc1nc(SC2CCCC2)c2ncn(/C=C3/C[C@@H]3CO)c2n1,-,hybridisation,Akata,1.4 µM
Nc1ccn(C[C@@H](CO)OCP(=O)(O)O)c(=O)n1,-,hybridisation,DAUDI,65.6 µM
Nc1nc2c(ncn2COC(CO)CO)c(=O)[nH]1,-,-,H-1,<5 µM
CC(C)CSc1nc(N)nc2c1ncn2/C=C1/C[C@@H]1CO,-,hybridisation,Akata,0.6 µM
CCCCCCCC/C=C\CCCCCCCOCCOP1(=O)CO[C@@H](Cn2ccc(N)nc2=O)CO1,-,hybridisation,DAUDI,0.06 µM
Nc1nc2c(ncn2C/C=C2\CC2P(=O)(O)O)c(=O)[nH]1,-,-,DAUDI,<0.03 µM
O=C(NCc1ccc(Cl)cc1)c1cn(N2CCOCC2)c2ccc(CN3CCOCC3)cc2c1=O,-,plaque count,HFF,0.2 µM
O=C(NCc1ccc(Cl)cc1)c1cn2c3c(cc(CN4CCOCC4)cc3c1=O)OC(c1cccnc1)C2,-,ELISA,DAUDI,3.4 µM
CCCCOc1nc(N)nc2c1ncn2/C=C1/C[C@@H]1CO,-,hybridisation,Akata,6.6 µM
O=c1[nH]c(=O)n([C@H]2C[C@H](O)[C@@H](CO)O2)cc1C(O)C(Br)Br,P3HR-1,plaque count,RAJI,>23 µM
O=c1[nH]c(=O)n([C@@H]2CO[C@H](CO)O2)cc1Cl,-,-,H-1,0.6 µM
COC(c1cn([C@H]2C[C@H](O)[C@@H](CO)O2)c(=O)[nH]c1=O)C(Br)I,P3HR-1,plaque count,RAJI,3 µM
O=c1[nH]c(=O)n([C@H]2CS[C@@H](CO)O2)cc1I,-,-,H-1,>100 µM
CCCCCCCCCCCCCCCCCCOC[C@H](COP(=O)(O)CO[C@H](CO)Cn1ccc(N)nc1=O)OCc1ccccc1,-,hybridisation,DAUDI,0.5 µM
CCCCCOc1nc(N)nc2c1ncn2/C=C1/C[C@@H]1CO,-,hybridisation,Akata,0.8 µM
CCCCCCCCCCCCCCCCCOC[C@H](COP1(=O)CO[C@@H](Cn2ccc(N)nc2=O)CO1)OCc1ccccc1,-,hybridisation,DAUDI,>1 µM
Nc1nc2c(ncn2[C@@H]2C[C@H](O)[C@@H](O)[C@H]2O)c(=O)[nH]1,-,antigen,DAUDI,2.9 µg/mL
COC(c1cn([C@H]2C[C@H](O)[C@@H](CO)O2)c(=O)[nH]c1=O)C(Cl)I,P3HR-1,plaque count,RAJI,>214 µM
CCCCCCOc1nc(N)nc2c1ncn2/C=C1/C[C@@H]1CO,-,hybridisation,Akata,1.3 µM
Nc1ncnc2c1ncn2[C@@H]1C[C@H](NC=O)[C@@H](O)[C@H]1O,-,-,HFF,>100 µg/mL

The first 2 rows once more:

{"SMILES": "COC(=O)[C@H](C)NP(=O)(OC[C@@H]1C[C@]12C[C@@H]2n1cnc2c(N)ncnc21)Oc1ccccc1", "value": "2.8 µM"}
{"SMILES": "CC(N=[N+]=[N-])c1cn([C@H]2C[C@H](O)[C@@H](CO)O2)c(=O)[nH]c1=O", "strain": "P3HR-1", "read by": "cytopathic effect", "cell line": "HFF", "value": "44.6 µM"}

ECn: concentration that inhibits the pathogen or its effect by n%. Lines come from different laboratories, so protocols vary.